{"source": "PubChem BioAssay AID485275", "about": "(NMMLSC, 2010)", "note": "The list shows a part of the results, in another mix than the full data. Some structures show a salt or complex split into parts, the way the source records it. The source made the active and inactive calls.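 The calls were made as follows: active = plate passing quality check with inhibition over a set limit, or well fluorescence over plate mean plus 4 SD; inactive = the rest.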", "data": [{"experiment": "inhibitors of Candida efflux pumps in yeast, primary screen, S. cerevisiae, Nile Red, multiplex (AID 485275);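 also: Nile Red retained in pooled yeast measured as flow cytometry median fluorescence; 0% = buffer negative control and 100% = Enniatin B positive control; higher means more Nile Red kept so more efflux inhibition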", "conditions": "S. cerevisiae Candida pump triplex, at 10 µM, active compounds read high", "values": [{"smiles": "CP(=O)(Oc1ccccc1)N1CCOC1=O", "note": "(centres undefined)", "inhibition": "inactive: 0%"}, {"smiles": "CCc1ccc(OP(C)(=O)Nc2cccnc2)cc1", "note": "(centres undefined)", "inhibition": "inactive: 0.21%"}, {"smiles": "COc1ccccc1OP(C)(=O)Nc1c(C)n(C)n(-c2ccccc2)c1=O", "note": "(centres undefined)", "inhibition": "inactive: 0.01%"}, {"smiles": "O=C(OCCCN1CCCC1)C(O)(c1ccccc1)C1CCCCC1", "note": "(centres undefined)", "inhibition": "inactive: -0.01%"}, {"smiles": "CCN(CC)CC(O)COC(=O)C(O)(c1ccccc1)C1CCCCC1", "note": "(centres undefined)", "inhibition": "inactive: -0.3%"}, {"smiles": "COc1ccc(OP(C)(=O)Nc2ccc(Br)cc2)cc1", "note": "(centres undefined)", "inhibition": "inactive: 0.25%"}, {"smiles": "CN(C)C(=O)c1c([N+](=O)[O-])cc([N+](=O)[O-])cc1[N+](=O)[O-]", "inhibition": "inactive: -0.02%"}, {"smiles": "CP(=O)(Nc1ccc(Cl)cc1)Oc1ccc(F)cc1", "note": "(centres undefined)", "inhibition": "inactive: -0.03%"}, {"smiles": "CC(C)(C)c1ccc(OP(C)(=O)O)cc1", "inhibition": "inactive: -0.24%"}, {"smiles": "COc1ccccc1OP(C)(=O)Nc1ccccc1Br", "note": "(centres undefined)", "inhibition": "inactive: -0.03%"}, {"smiles": "CP(=O)(OC12CC3CC(CC(C3)C1)C2)OC12CC3CC(CC(C3)C1)C2", "inhibition": "inactive: 0.19%"}, {"smiles": "CCOC(=O)c1ccc(NP(C)(=O)Oc2ccc(Cl)cc2)cc1", "note": "(centres undefined)", "inhibition": "inactive: -0.12%"}, {"smiles": "Nc1ccc2c(ccc3cccnc32)n1.O=[N+]([O-])c1cc([N+](=O)[O-])c(O)c([N+](=O)[O-])c1", "inhibition": "inactive: 0.04%"}, {"smiles": "COc1ccc(OP(C)(=O)Nc2ccccc2Br)cc1", "note": "(centres undefined)", "inhibition": "inactive: 0.02%"}, {"smiles": "COc1ccccc1OP(C)(=O)Nc1ccc(C)c(C)c1", "note": "(centres undefined)", "inhibition": "inactive: 0.02%"}, {"smiles": "Cc1cc(C)cc(OP(C)(=O)Nc2cccc(C(F)(F)F)c2)c1", "note": "(centres undefined)", "inhibition": "inactive: -0.05%"}, {"smiles": "CP(=O)(OCCOc1ccccc1)OCCOc1ccccc1", "inhibition": "inactive: 0.08%"}, {"smiles": "CP(=O)(Nc1ccc(Cl)cc1Cl)Oc1ccccc1", "note": "(centres undefined)", "inhibition": "inactive: 0%"}, {"smiles": "Cc1nc2ccc3ccccc3c2o1.O=[N+]([O-])c1cc([N+](=O)[O-])c(O)c([N+](=O)[O-])c1", "inhibition": "inactive: -0.06%"}, {"smiles": "CN(C)CCOC(=O)C(O)(c1ccccc1)C1CCCC1", "note": "(centres undefined)", "inhibition": "inactive: -0.06%"}, {"smiles": "COc1ccc(OP(C)(=O)Nc2ccccn2)cc1", "note": "(centres undefined)", "inhibition": "inactive: 0.01%"}, {"smiles": "COc1ccccc1OP(C)(=O)Nc1ccc(Br)cc1", "note": "(centres undefined)", "inhibition": "inactive: 0.24%"}, {"smiles": "CCc1ccc(OP(C)(=O)O)cc1", "inhibition": "inactive: -0.06%"}, {"smiles": "CP(=O)(Nc1ccccn1)Oc1ccccc1", "note": "(centres undefined)", "inhibition": "inactive: -0.04%"}, {"smiles": "COc1ccccc1OP(C)(=O)Nc1ccc(C)cc1C", "note": "(centres undefined)", "inhibition": "inactive: -0.12%"}, {"smiles": "O=[N+]([O-])c1cc([N+](=O)[O-])c(Nc2ccccn2)c([N+](=O)[O-])c1", "inhibition": "inactive: -0.05%"}, {"smiles": "Cc1c(NP(C)(=O)Oc2ccc(C(C)C)cc2)c(=O)n(-c2ccccc2)n1C", "note": "(centres undefined)", "inhibition": "inactive: 0.01%"}, {"smiles": "CC(C)c1ccc(OP(C)(=O)Nc2ccc(SC(F)(F)F)cc2)cc1", "note": "(centres undefined)", "inhibition": "inactive: 0.53%"}, {"smiles": "CP(=O)(Nc1ccccc1F)Oc1ccccc1", "note": "(centres undefined)", "inhibition": "inactive: 0%"}, {"smiles": "COc1ccc2c(c1O)-c1c(O)c(OC)cc3c1[C@H](C2)[N+](C)(C)CC3.O=[N+]([O-])c1cc([N+](=O)[O-])c([O-])c([N+](=O)[O-])c1[O-]", "inhibition": "inactive: 0%"}, {"smiles": "O=C(OCCN1CCN(CCOCc2ccccc2)CC1)C(O)(c1ccccc1)c1ccccc1", "inhibition": "inactive: -0.06%"}, {"smiles": "O=C(OC1CN2CCC1CC2)c1ccc([N+](=O)[O-])cc1", "note": "(centres undefined)", "inhibition": "inactive: 0.12%"}, {"smiles": "COc1ccc(OP(C)(=O)Nc2ccc(SC(F)(F)F)cc2)cc1", "note": "(centres undefined)", "inhibition": "inactive: 0.04%"}, {"smiles": "CCOC(=O)c1ccc(NP(C)(=O)Oc2ccc(F)cc2)cc1", "note": "(centres undefined)", "inhibition": "inactive: -1.05%"}, {"smiles": "CCCCCOc1ccc(NP(C)(=O)Oc2ccc(Cl)cc2Cl)cc1", "note": "(centres undefined)", "inhibition": "inactive: 0.02%"}, {"smiles": "O=[N+]([O-])c1cc([N+](=O)[O-])c(OC2CCCCC2O)c([N+](=O)[O-])c1", "note": "(centres undefined)", "inhibition": "inactive: -0.04%"}, {"smiles": "CP(=O)(Nc1ccccc1)Oc1ccc(F)cc1", "note": "(centres undefined)", "inhibition": "inactive: 0.05%"}, {"smiles": "CCN(CC)CCCOC(=O)C(O)(c1ccccc1)C1CCCCC1", "note": "(centres undefined)", "inhibition": "inactive: 0.17%"}, {"smiles": "COc1ccc(NP(C)(=O)Oc2ccccc2OC)cc1", "note": "(centres undefined)", "inhibition": "inactive: -0.03%"}, {"smiles": "CN(C)CCOC(=O)C(O)(c1ccccc1)C1CCCCC1", "note": "(centres undefined)", "inhibition": "inactive: 0.01%"}, {"smiles": "COc1ccc(OP(C)(=O)Nc2cccc(Br)c2)cc1", "note": "(centres undefined)", "inhibition": "inactive: -0.09%"}, {"smiles": "O=[N+]([O-])c1cc([N+](=O)[O-])c(NCC2CCS(=O)(=O)C2)c([N+](=O)[O-])c1", "note": "(centres undefined)", "inhibition": "inactive: 0.13%"}, {"smiles": "O=[N+]([O-])c1ccc(OP2(=O)COCCO2)cc1", "note": "(centres undefined)", "inhibition": "inactive: 0.01%"}, {"smiles": "CCOP(C)(=S)SCC(=O)NC(C)(CC)C(=O)O", "note": "(centres undefined)", "inhibition": "inactive: -0.08%"}, {"smiles": "CP(=O)(Nc1ccc(SC(F)(F)F)cc1)Oc1ccc(F)cc1", "note": "(centres undefined)", "inhibition": "inactive: -0.04%"}, {"smiles": "Cc1ccccc1NP(C)(=O)Nc1ccccc1C", "inhibition": "inactive: 0.84%"}, {"smiles": "CP(=O)(Nc1ccc2c(c1)OCCO2)Oc1ccccc1", "note": "(centres undefined)", "inhibition": "inactive: -0.01%"}, {"smiles": "O=[N+]([O-])c1cc([N+](=O)[O-])c(-n2nnc3ccccc32)c([N+](=O)[O-])c1", "inhibition": "inactive: 0.03%"}, {"smiles": "Cc1nc2ccc3ccccc3c2s1.O=[N+]([O-])c1cc([N+](=O)[O-])c(O)c([N+](=O)[O-])c1", "inhibition": "inactive: 0.02%"}, {"smiles": "O=[N+]([O-])c1cc([N+](=O)[O-])c(-c2cnn(-c3ccccc3)c2)c([N+](=O)[O-])c1", "inhibition": "inactive: -0.08%"}, {"smiles": "O=[N+]([O-])c1cc([N+](=O)[O-])c(Nc2nnnn2CCO)c([N+](=O)[O-])c1", "inhibition": "inactive: -0.06%"}, {"smiles": "CC1=C2N=C(C=C3N=C(C(C)=C4[N-][C@@](C)([C@@H]5N=C1[C@](C)(CCC(=O)NC[C@@H](C)OP(=O)([O-])O[C@H]1[C@@H](O)[C@@H](n6cnc7cc(C)c(C)cc76)O[C@@H]1CO)[C@H]5CC(N)=O)[C@@](C)(CC(N)=O)[C@@H]4CCC(N)=O)[C@@](C)(CC(N)=O)[C@@H]3CCC(N)=O)C(C)(C)[C@@H]2CCC(N)=O.[C-]#N.[Co+3]", "inhibition": "inactive: -0.06%"}, {"smiles": "CCOC(=O)C(CC)C1=NC(C)(C)Cc2ccccc21.O=[N+]([O-])c1cc([N+](=O)[O-])c(O)c([N+](=O)[O-])c1", "note": "(centres undefined)", "inhibition": "inactive: -0.17%"}, {"smiles": "CP(=O)(Nc1ccc(SC(F)(F)F)cc1)Oc1ccccc1", "note": "(centres undefined)", "inhibition": "inactive: 0.23%"}, {"smiles": "CCCOc1ccc(NP(C)(=O)Oc2ccc(Cl)cc2)cc1", "note": "(centres undefined)", "inhibition": "inactive: 0.1%"}, {"smiles": "COc1ccccc1OP(C)(=O)Nc1c(C)cccc1C", "note": "(centres undefined)", "inhibition": "inactive: -0.01%"}, {"smiles": "CN1CCCCC1COC(=O)C1(O)c2ccccc2CCc2ccccc21", "note": "(centres undefined)", "inhibition": "inactive: 0.34%"}, {"smiles": "O=C(O)c1cccc(Nc2c([N+](=O)[O-])cc([N+](=O)[O-])cc2[N+](=O)[O-])c1", "inhibition": "inactive: 0.07%"}, {"smiles": "CC1=NCCc2c1[nH]c1ccccc21.O=[N+]([O-])c1cc([N+](=O)[O-])c(O)c([N+](=O)[O-])c1", "inhibition": "inactive: -0.17%"}, {"smiles": "Cc1cc(C)cc(OP(C)(=O)Nc2ccc(C)cc2C)c1", "note": "(centres undefined)", "inhibition": "inactive: 0.02%"}, {"smiles": "CCOC(=O)c1ccc(NP(C)(=O)Oc2cc(C)cc(C)c2)cc1", "note": "(centres undefined)", "inhibition": "inactive: 0.09%"}, {"smiles": "COc1ccccc1OP(C)(=O)Nc1cccc(Br)c1", "note": "(centres undefined)", "inhibition": "inactive: -0.01%"}, {"smiles": "CP(=O)(Nc1cccc(Br)c1)Oc1ccccc1", "note": "(centres undefined)", "inhibition": "inactive: 0.01%"}, {"smiles": "Cc1cc(C)cc(OP(C)(=O)Nc2ccccn2)c1", "note": "(centres undefined)", "inhibition": "inactive: -0.01%"}, {"smiles": "Cc1ccc(C)c(NP(C)(=O)Oc2ccccc2)c1", "note": "(centres undefined)", "inhibition": "inactive: -0.07%"}, {"smiles": "CCN(CC)CCCOC(=O)C(O)(c1ccccc1)c1ccccc1", "inhibition": "inactive: -0.15%"}, {"smiles": "CC(C)(C)c1ccc(OP(C)(=O)Nc2ccc(SC(F)(F)F)cc2)cc1", "note": "(centres undefined)", "inhibition": "inactive: -0.25%"}, {"smiles": "Cc1cccc(C)c1OP(C)(N)=O", "note": "(centres undefined)", "inhibition": "inactive: 0.02%"}, {"smiles": "O=[N+]([O-])c1ccc2c(c1)C=Nc1ccccc1O2", "inhibition": "inactive: -0.02%"}, {"smiles": "O=[N+]([O-])c1cc([N+](=O)[O-])c(Nc2cccnc2)c([N+](=O)[O-])c1", "inhibition": "inactive: 0.05%"}, {"smiles": "COc1ccccc1OP(C)(=O)Nc1cc(Cl)ccc1C", "note": "(centres undefined)", "inhibition": "inactive: 0.23%"}, {"smiles": "COc1ccc(OP(C)(=O)Nc2cccc(F)c2)cc1", "note": "(centres undefined)", "inhibition": "inactive: 0%"}, {"smiles": "Cc1cc(C)cc(OP(C)(N)=O)c1", "note": "(centres undefined)", "inhibition": "inactive: 0.12%"}, {"smiles": "CCOC(=O)c1ccc(NP(C)(=O)Oc2ccccc2)cc1", "note": "(centres undefined)", "inhibition": "inactive: -0.14%"}, {"smiles": "COc1ccccc1OP(C)(=O)Nc1ccc(C)cc1", "note": "(centres undefined)", "inhibition": "inactive: 0.04%"}, {"smiles": "Cc1ccc(NP(C)(=O)Oc2ccccc2)c(C)c1", "note": "(centres undefined)", "inhibition": "inactive: -0.02%"}, {"smiles": "COc1ccccc1OP(C)(=O)Nc1ccccc1", "note": "(centres undefined)", "inhibition": "inactive: 0.09%"}, {"smiles": "CP(=O)(Nc1ccccc1Br)Oc1ccccc1", "note": "(centres undefined)", "inhibition": "inactive: -0.08%"}, {"smiles": "CP(=S)(Nn1cnnc1)Oc1ccccc1", "note": "(centres undefined)", "inhibition": "inactive: 0%"}, {"smiles": "CCc1ccc(OP(C)(=O)N2CCN(c3ccc([N+](=O)[O-])cc3)CC2)cc1", "note": "(centres undefined)", "inhibition": "inactive: 0.05%"}, {"smiles": "CP(=O)(NC(=O)Nc1ccccc1)Oc1ccccc1", "note": "(centres undefined)", "inhibition": "inactive: 0.01%"}, {"smiles": "Cc1cc(C)cc(OP(C)(=O)Nc2ccc(SC(F)(F)F)cc2)c1", "note": "(centres undefined)", "inhibition": "inactive: -0.19%"}, {"smiles": "Cc1cccc(C)c1OP(C)(=O)Nc1ccc(SC(F)(F)F)cc1", "note": "(centres undefined)", "inhibition": "inactive: 0.1%"}, {"smiles": "CP(=O)(Nc1ccc(SC(F)(F)F)cc1)Oc1ccc(Cl)cc1", "note": "(centres undefined)", "inhibition": "inactive: 0.19%"}, {"smiles": "CP(=O)(Oc1ccccc1)OC(c1ccccc1)C(F)(F)F", "note": "(centres undefined)", "inhibition": "inactive: -0.03%"}, {"smiles": "CP(=O)(Nc1ccccn1)Oc1ccc(Cl)cc1", "note": "(centres undefined)", "inhibition": "inactive: 1.79%"}, {"smiles": "CCOP(C)(=S)SCC(=O)NC(C)C(=O)O", "note": "(centres undefined)", "inhibition": "inactive: -0.15%"}, {"smiles": "CCOC(=O)c1ccc(NP(C)(=O)Oc2ccc(OC)cc2)cc1", "note": "(centres undefined)", "inhibition": "inactive: 0.01%"}, {"smiles": "O=[N+]([O-])c1cc([N+](=O)[O-])c(O)c([N+](=O)[O-])c1.c1ccc(Oc2ccncc2)cc1", "inhibition": "inactive: -0.05%"}]}]}
